Test results from publication PMC10971807 (Marine Drugs, 2024).

Chains of the proteins cited; added tags and fusions are not shown. Residues count along the entry.
UniProt P17787, 26-502 limits assumed: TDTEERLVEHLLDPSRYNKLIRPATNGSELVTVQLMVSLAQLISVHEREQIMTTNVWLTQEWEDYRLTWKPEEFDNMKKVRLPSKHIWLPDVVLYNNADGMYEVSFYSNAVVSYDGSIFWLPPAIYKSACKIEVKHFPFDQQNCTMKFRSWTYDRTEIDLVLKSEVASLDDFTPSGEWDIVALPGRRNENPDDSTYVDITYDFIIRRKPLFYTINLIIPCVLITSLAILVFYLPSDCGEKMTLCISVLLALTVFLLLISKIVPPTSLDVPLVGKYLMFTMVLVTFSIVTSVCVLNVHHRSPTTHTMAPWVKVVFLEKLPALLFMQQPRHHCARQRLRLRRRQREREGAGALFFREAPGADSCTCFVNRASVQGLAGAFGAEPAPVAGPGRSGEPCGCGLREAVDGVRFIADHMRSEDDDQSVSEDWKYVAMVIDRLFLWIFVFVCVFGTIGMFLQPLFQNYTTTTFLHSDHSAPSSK
UniProt P43681, 29-627 limits assumed: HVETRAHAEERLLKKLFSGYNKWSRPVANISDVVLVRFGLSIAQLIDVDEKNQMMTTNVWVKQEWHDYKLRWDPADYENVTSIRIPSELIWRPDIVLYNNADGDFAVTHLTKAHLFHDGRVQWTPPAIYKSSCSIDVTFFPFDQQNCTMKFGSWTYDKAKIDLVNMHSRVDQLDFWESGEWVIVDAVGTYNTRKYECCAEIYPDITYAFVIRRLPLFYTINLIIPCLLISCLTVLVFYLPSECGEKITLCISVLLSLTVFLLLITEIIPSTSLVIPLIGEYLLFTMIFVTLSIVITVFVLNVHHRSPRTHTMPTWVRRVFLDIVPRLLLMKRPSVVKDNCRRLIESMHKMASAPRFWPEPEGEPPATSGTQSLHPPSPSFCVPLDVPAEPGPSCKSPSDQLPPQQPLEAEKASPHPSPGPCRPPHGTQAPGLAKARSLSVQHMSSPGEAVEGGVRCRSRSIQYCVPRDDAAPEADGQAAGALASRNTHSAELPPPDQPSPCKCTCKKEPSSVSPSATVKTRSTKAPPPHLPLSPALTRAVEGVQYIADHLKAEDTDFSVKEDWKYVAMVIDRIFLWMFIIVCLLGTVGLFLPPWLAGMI
UniProt P30926, 22-498 limits assumed: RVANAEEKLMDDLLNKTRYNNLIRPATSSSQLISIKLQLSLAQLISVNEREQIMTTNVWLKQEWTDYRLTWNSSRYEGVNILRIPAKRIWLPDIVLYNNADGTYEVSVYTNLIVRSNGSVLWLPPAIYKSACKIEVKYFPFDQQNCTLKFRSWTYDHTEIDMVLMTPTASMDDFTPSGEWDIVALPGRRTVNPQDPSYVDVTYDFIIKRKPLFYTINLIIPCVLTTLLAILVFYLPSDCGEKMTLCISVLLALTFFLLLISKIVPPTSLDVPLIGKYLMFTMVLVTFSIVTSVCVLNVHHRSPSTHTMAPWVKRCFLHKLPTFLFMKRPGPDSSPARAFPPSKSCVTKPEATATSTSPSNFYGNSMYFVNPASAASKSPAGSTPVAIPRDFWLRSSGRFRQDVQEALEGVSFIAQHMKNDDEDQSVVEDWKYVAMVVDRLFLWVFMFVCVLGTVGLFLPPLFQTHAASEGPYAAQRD
UniProt P32297, 32-505 limits assumed: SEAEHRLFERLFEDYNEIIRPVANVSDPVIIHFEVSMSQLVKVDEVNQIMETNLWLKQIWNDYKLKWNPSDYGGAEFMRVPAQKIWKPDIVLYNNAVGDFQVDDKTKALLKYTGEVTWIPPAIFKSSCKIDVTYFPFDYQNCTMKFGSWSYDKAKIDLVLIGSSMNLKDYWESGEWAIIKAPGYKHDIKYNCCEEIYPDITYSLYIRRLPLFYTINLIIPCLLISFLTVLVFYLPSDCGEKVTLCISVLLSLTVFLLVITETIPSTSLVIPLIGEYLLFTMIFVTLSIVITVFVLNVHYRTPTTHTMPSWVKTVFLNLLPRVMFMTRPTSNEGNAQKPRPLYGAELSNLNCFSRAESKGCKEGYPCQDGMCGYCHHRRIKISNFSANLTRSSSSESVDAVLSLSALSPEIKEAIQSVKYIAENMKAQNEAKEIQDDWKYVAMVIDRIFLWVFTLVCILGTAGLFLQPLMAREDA

Experiments:
Details in all cases: 10 and 100 nM peptide; described as inactive
hα1β1εδ nAChR = hα1β1εδ nAChR (Homo sapiens, UniProt P02708+Q04844+Q07001); assay: Two-electrode voltage clamp, inhibition of ACh-evoked currents in X. laevis oocytes expressing hα1β1εδ nAChRs
hα4β2 nAChR = hα4β2 nAChR (Homo sapiens, UniProt P17787+P43681)
hα3β4 nAChR = hα3β4 nAChR (Homo sapiens, UniProt P30926+P32297)
hα4β4 nAChR = hα4β4 nAChR (Homo sapiens, UniProt P30926+P43681)
hα1β1δγ nAChR = hα1β1δγ nAChR (Homo sapiens, UniProt P02708+P07510+Q07001); assay: Two-electrode voltage clamp, inhibition of ACh-evoked currents in X. laevis oocytes expressing hα1β1δγ nAChRs

CC(C)C[C@@H]1NC(=O)[C@H](CCC(=O)O)NC(=O)[C@@H]2CCCN2C(=O)[C@H](Cc2c[nH]cn2)NC(=O)[C@H](CC(N)=O)NC(=O)[C@H](C(C)C)NC(=O)[C@H](CN)NC(=O)[C@@H]2CSSC[C@H](NC(=O)CN)C(=O)N[C@@H](CSSC[C@@H](C(N)=O)NC1=O)C(=O)N[C@@H](CN)C(=O)N[C@@H](Cc1c[nH]cn1)C(=O)N1CCC[C@H]1C(=O)N[C@@H](C)C(=O)N2 [PeIA[S4Dap, S9Dap]]
< 1%: Inhibition of ACh-evoked currents at hα1β1εδ (hα1β1εδ nAChR) | Inhibition of ACh-evoked currents at hα4β2 (hα4β2 nAChR) | Inhibition of ACh-evoked currents at hα3β4 (hα3β4 nAChR) | Inhibition of ACh-evoked currents at hα4β4 (hα4β4 nAChR) | Inhibition of ACh-evoked currents at hα1β1δγ (hα1β1δγ nAChR)

CC(C)C[C@@H]1NC(=O)[C@H](CCC(=O)O)NC(=O)[C@@H]2CCCN2C(=O)[C@H](Cc2c[nH]cn2)NC(=O)[C@H](CC(N)=O)NC(=O)[C@H](C(C)C)NC(=O)[C@H](CO)NC(=O)[C@@H]2CSSC[C@H](NC(=O)CN)C(=O)N[C@@H](CSSC[C@@H](C(N)=O)NC1=O)C(=O)N[C@@H](CO)C(=O)N[C@@H](Cc1c[nH]cn1)C(=O)N1CCC[C@H]1C(=O)N[C@@H](C)C(=O)N2 [PeIA]
< 1%: Inhibition of ACh-evoked currents at hα1β1εδ (hα1β1εδ nAChR) | Inhibition of ACh-evoked currents at hα1β1δγ (hα1β1δγ nAChR)
